Measurements published in article PMC2955668, “Self-association of the Lentivirus protein, Nef” (Retrovirology, 2010).

Biological target: T1, SF2-HFNefG2A (HIV-1 (SF2), G2A)
T1 construct: Not myristoylated; also called myristoylation-defective tagged Nef; source: 293T, transfected; in membrane and cytosolic fractions
Experiment: co-IP; membrane-associated protein fraction of co-transfected 293T cells, solubilised in Buffer B plus 0.5% IGEPAL CA-630; anti-HA monoclonal antibody precipitates the HF-tagged Nef, untagged Nef detected by Western blot; fractional dimerization (FD) estimated from band densities assuming strict dimers and a binomial distribution
Details: partners not purified

B1: SF2Nef (natural protein)
chain: not shown
modifications: N-terminal myristate (the paper calls Nef a myristoylated protein)
notes: also called untagged SF2Nef; HIV-1 Nef, allele SF2; source: 293T, transfected (pCG or pCGCG vector); in membrane and cytosolic fractions, in intact cells or in clarified whole cell lysate
  FD relative to that of SF2Nef with SF2-HFNef (FDG2A/FDSF2): 0.7
